Compound potency records, mixed from different reports. Data source: NIAID ChemDB in PubChem.

Shared fields: growth or infection tests; species: HIV-1; read by: cytopathic effect / XTT; read-out: EC50

ECn: concentration that inhibits the pathogen or its effect by n%. Lines come from different laboratories, so protocols vary. An empty or dashed field is not shown. Two numbers with a dash give a range or band.

structure | strain or isolate | setting | cells | mutations | result
NC(=S)c1c(N)n(COC(CO)CO)c2ncnc(N)c12 |  |  | MT-2 + MT2 |  | >320 µM
Cc1cn([C@H]2C[C@H](N=[N+]=[N-])[C@@H](COC(=O)CC[C@@H](C)[C@H]3CC[C@H]4[C@@H]5CC[C@@H]6CCCC[C@]6(C)[C@H]5CC[C@]34C)O2)c(=O)[nH]c1=O |  |  | CEM + CME-SS |  | 0.042 µM
Nc1nc2c(ncn2[C@H]2CO[C@@H](CO)O2)c(=O)[nH]1 |  |  | MT-2 | RT-K65R | 12 µM
CCCCCC=C(c1cc(Cl)c(OC)c(C(N)=O)c1)c1cc(Cl)c(OC)c(C(N)=O)c1 | RF |  | CEM + CEM-SS |  | >31 µM
CC(=O)Nc1ccccc1S(=O)(=O)c1ccccc1 | RF |  | CEM + CEM-SS |  | 234 µM
NC(=O)c1c(Br)n(COC(CO)CO)c2ncnc(N)c12 |  |  | MT-2 + MT2 |  | >280 µM
Cc1ccnc2c1NC(=O)c1cccnc1N2C1CC1 | IIIB |  | Macrophage |  | 0.39 µM
NC(=O)C(c1ccccc1)(c1ccccc1)[C@H]1CCCN(CCc2ccc3c(c2)CCO3)C1 | NL4-3 |  | CEM4 |  | 0.95 µM
CC(C)CN(C[C@@H](O)[C@H](Cc1ccccc1)NC(=O)[C@H](CC(N)=O)NC(=O)c1ccc2ccccc2n1)C(=O)NC(C)(C)C | RF |  | CEM + CEM-SS |  | 0.06 µM
Cc1cn([C@H]2C[C@H](N=[N+]=[N-])[C@@H](CO)O2)c(=O)[nH]c1=O | IIIB |  | AA5 |  | 0.013 µM
C=C1C(=O)O[C@H]2/C=C(\C)C[C@@H]3C=C(CC/C=C(\C)CC[C@H]12)C(=O)O3 | RF |  | CEM + CEM-SS |  | 0.1 µg/mL
Cc1cn([C@H]2C[C@H](N=[N+]=[N-])[C@@H](CO)O2)c(=O)[nH]c1=O | IIIB |  | U-937 |  | 0.078 µg/mL
Cc1cn([C@H]2C[C@H](N=[N+]=[N-])[C@@H](COP(=O)(OCCC#N)OC3CCC4(C)C(=CCC5C4CCC4(C)C(C(C)CCCC(C)C)CCC54)C3)O2)c(=O)[nH]c1=O |  |  | CEM |  | 5.67 µM
CCCc1cc(=O)oc2c3c(c4c(c12)OC(C)(C)C=C4)O[C@H](C)[C@@H](C)[C@@H]3O | IIIB |  | AA5 |  | 0.16 µM
Cc1cn([C@H]2C[C@H](N=[N+]=[N-])[C@@H](COC(=O)C3CCCC3)O2)c(=O)[nH]c1=O |  |  | CEM + CME-SS |  | 0.04 µM
Cc1cn([C@H]2C[C@H](N=[N+]=[N-])[C@@H](CO)O2)c(=O)[nH]c1=O | NL4-3 |  | CEM + CEM-SS | RT-K103N | 0.16 µM
CSC[C@H](NC(=O)COc1cccc2cnccc12)C(=O)N[C@@H](Cc1ccccc1)[C@H](O)C(=O)N1CSC(C)(C)[C@H]1C(=O)NC(C)(C)C | IIIB |  | CEM + CEM-SS |  | 0.0057 µM
Nc1nc(NC2CC2)c2ncn([C@H]3C=C[C@@H](CO)C3)c2n1 | HXB2-D WT |  | MT-2 |  | 0.43 µM
CCCCCC=C(c1cc(Cl)c(OC)c(C(=O)O)c1)c1cc(Cl)c(OC)c(C(=O)O)c1 | RF |  | CEM + CEM-SS |  | >84 µM
Cc1cn([C@H]2C[C@H](N=[N+]=[N-])[C@@H](COP(=O)(OCCC#N)O[C@H]3CC[C@@]4(C)C(=CC[C@@H]5[C@@H]4CC[C@]4(C)C([C@H](C)CCCC(C)C)CC[C@@H]54)C3)O2)c(=O)[nH]c1=O |  |  | CEM |  | 1.65 µM
Cc1cn([C@H]2C[C@H](N=[N+]=[N-])[C@@H](CO)O2)c(=O)[nH]c1=O | 214 |  | CEM + CEM-SS |  | 0.009 µM
Cc1cn([C@H]2C=C[C@@H](CO)O2)c(=O)[nH]c1=O | RF |  | CEM + CEM-SS |  | 0.22–0.32 µM
Cc1cn([C@H]2C[C@H](N=[N+]=[N-])[C@@H](CO)O2)c(=O)[nH]c1=O | Site-directed mutant |  | MT-2 | RT-K65R Y115F | 0.196 µM
Cc1cc(SC2=C(O)C[C@@](CCc3ccc(N)cc3)(C(C)C)OC2=O)c(C(C)(C)C)cc1CO | IIIB |  | CEM |  | 0.46 µM
Nc1nc(NC2CC2)c2ncn([C@H]3C=C[C@@H](CO)C3)c2n1 | LAI |  | MT-2 |  | 2.5 µM
NC(=O)c1c(N)n(COCCO)c2ncnc(N)c12 |  |  | MT-2 + MT2 |  | >380 µM
CCc1c(Sc2ccccn2)n(COCc2ccccc2)c(=O)[nH]c1=O | IIIB |  | CEM + CEM-SS |  | 0.008 µM
CCCCCC=C(c1cc(Br)cc(C(=O)OC)c1OC)c1cc(Br)cc(C(=O)OC)c1OC | RF |  | CEM + CEM-SS |  | >44 µM
O=[N+]([O-])c1ccccc1S(=O)c1ccccc1 | RF |  | CEM + CEM-SS |  | 6 µM
CC(C)[C@H](NC(=O)COc1cccc(N(C)C)c1)C(=O)N[C@@H](Cc1ccccc1)[C@H](O)C(=O)N1CSC(C)(C)[C@H]1C(=O)NC(C)(C)C | IIIB |  | CEM + CEM-SS |  | 0.015 µM
Cc1cn([C@H]2C[C@H](N=[N+]=[N-])[C@@H](COC(=O)c3cnc[nH]3)O2)c(=O)[nH]c1=O |  |  | CEM + CME-SS |  | 0.31 µM
Nc1nc(N)c2ncn([C@H]3CO[C@@H](CO)O3)c2n1 |  |  | PBMC | RT-K65R Q151M | >250 µM
Cc1ccnc2c1NC(=O)c1cccnc1N2C1CC1 | NL4-3 |  | CEM + CEM-SS | RT-L74V | 0.02 µM
Nc1ccccc1S(=O)(=O)c1ccccc1 | RF |  | CEM + CEM-SS |  | 133 µM
CSC[C@H](NC(=O)COc1cccc(Nc2ccccc2)c1)C(=O)N[C@@H](Cc1ccccc1)[C@H](O)C(=O)N1CSC(C)(C)[C@H]1C(=O)NC(C)(C)C | IIIB |  | CEM + CEM-SS |  | 0.0068 µM
Cc1cn([C@H]2C[C@H](N=[N+]=[N-])[C@@H](CO)O2)c(=O)[nH]c1=O | ROJO | clinical isolate | PBMC |  | 0.01 µM
O=c1[nH]cnc2c1ncn2[C@H]1CC[C@@H](CO)O1 | RF |  | CEM + CEM-SS |  | 2.25–2.45 µM
CC(C)[C@H](NC(=O)COc1cccc2cnccc12)C(=O)N[C@@H](Cc1ccccc1)[C@H](O)C(=O)N1CSC[C@H]1C(=O)NC(C)(C)C | IIIB |  | CEM + CEM-SS |  | 0.031 µM
Cc1ccc(S(=O)c2ccccc2[N+](=O)[O-])cc1 | RF |  | CEM + CEM-SS |  | 7.8 µM
Cc1cn([C@H]2C[C@H](N=[N+]=[N-])[C@@H](CO)O2)c(=O)[nH]c1=O | RF |  | CEM + CEM-SS |  | 0.002 µM
CC(C)(C)OC(=O)N[C@@H](Cc1ccccc1)[C@H](O)CNC[C@@H](O)[C@H](Cc1ccc(OCC(=O)N2CCOCC2)cc1)NC(=O)OC(C)(C)C | RF |  | CEM + CEM-SS |  | 0.1–0.18 µM
O=S(=O)(c1ccccc1)c1ccccn1 | RF |  | CEM + CEM-SS |  | 68 µM

Repeating the final 6 entries:

structure	strain or isolate	setting	cells	mutations	result
O=c1[nH]cnc2c1ncn2[C@H]1CC[C@@H](CO)O1	RF		CEM + CEM-SS		2.25–2.45 µM
CC(C)[C@H](NC(=O)COc1cccc2cnccc12)C(=O)N[C@@H](Cc1ccccc1)[C@H](O)C(=O)N1CSC[C@H]1C(=O)NC(C)(C)C	IIIB		CEM + CEM-SS		0.031 µM
Cc1ccc(S(=O)c2ccccc2[N+](=O)[O-])cc1	RF		CEM + CEM-SS		7.8 µM
Cc1cn([C@H]2C[C@H](N=[N+]=[N-])[C@@H](CO)O2)c(=O)[nH]c1=O	RF		CEM + CEM-SS		0.002 µM
CC(C)(C)OC(=O)N[C@@H](Cc1ccccc1)[C@H](O)CNC[C@@H](O)[C@H](Cc1ccc(OCC(=O)N2CCOCC2)cc1)NC(=O)OC(C)(C)C	RF		CEM + CEM-SS		0.1–0.18 µM
O=S(=O)(c1ccccc1)c1ccccn1	RF		CEM + CEM-SS		68 µM